Some values come without a unit; they compare only within their column. Where a SMILES comes first, the peptide text is derived from it. [ ]: non-standard residue; d: D form. The star is where a group is joined. X2 = O=C1OC2(c3ccc(O)cc3Oc3cc(O)ccc32)c2cccc(C(=O)*)c21
System: reconstructed cornea-like epithelium (RhCE, EpiOcular™)
Assay: Viability of reconstructed cornea-like epithelium (eye irritation model)
Type: cell-based
Procedure: FIG. 4a is a graph of the viability reconstructed cornea-like epithelium (RhCE, EpiOcular™) after incubation with MFIGA001. NC=Negative Control; PC=Positive Control. FIG. 4b is a graph of the viability reconstructed cornea-like epithelium (RhCE, EpiOcular™) after incubation with 10 µM of MFIGA001a and MFIGAF001b. NC=Negative Control; PC=Positive Control; A2=MFIGAF001a; and B1=MFIGAF001b.
MFIGAF001 was also assessed independently by a CRO (Evotec) in an OECD compliant reconstructed cornea-like epithelial cell model (RhCE, EpiOcular™).

Row | Compound | Mean of OD (0.1 mg/ml) | Mean of OD (0.2 mg/mL) | Mean of OD (0.4 mg/mL) | Mean of OD (0.5 mg/mL) | Mean of OD (10 μM)
1 | N=C(N)NCCC[C@@H]1NC(=O)CNC(=O)[C@H](Cc2c[nH]c3ccccc23)NC(=O)[C@H](Cc2ccccc2)NC(=O)[C@H](Cc2c[nH]c3ccccc23)NC(=O)[C@@H](Cc2ccccc2)NC(=O)[C@H](CCCCN)NC(=O)[C@H](CCCCN)NC1=O [MFIGAF001, Cyclo(Arg-Lys-Lys-phe-Trp-Phe-Trp-Gly)] (HELM PEPTIDE1{F.W.G.R.K.K.[dF].W}$PEPTIDE1,PEPTIDE1,1:R1-8:R2$$$V2.0) | 1.910 | 1.908 | 1.940 | 2.051 | –
2 | N=C(N)NCCC[C@@H]1NC(=O)CNC(=O)[C@H](CCCCNC(=O)c2cccc3c2C(=O)OC32c3ccc(O)cc3Oc3cc(O)ccc32)NC(=O)[C@H](Cc2c[nH]c3ccccc23)NC(=O)[C@H](Cc2ccccc2)NC(=O)[C@H](Cc2c[nH]c3ccccc23)NC(=O)[C@@H](Cc2ccccc2)NC(=O)[C@H](CCCCN)NC(=O)[C@H](CCCCN)NC1=O [MFIGAF001b, Cyclo(Arg-Lys-Lys-phe-Trp-Phe-Trp-Lys(CF)-Gly)] (cyclo(FWK(X2)GRKK[dF]W)) | – | – | – | – | 3.319

Source: patent publication US20240299591A1 (priority 2021, published 2024)
